Experimental data: PubChem BioAssay AID624099 (ICCB-Longwood, 2012)
In all, the deposit lists about 21,000 reagents; below is a part drawn at random. 497 of them (2.4%) were called active. 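Higher z means weaker E2 silencing; only reporter increases were scored, and knock-downs that hurt cell survival may mask genuine repressor factors.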 Unmarked entries are inactive. Reagents against one gene are numbered here. Reagent sequences are not shown.

Purpose: 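Host factors E2 relies on to silence an HPV18 LCR reporter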 (primary screen)
Cells: human C33A cervical carcinoma cells (HPV-negative) stably expressing BPV1 E2 and an HPV18 LCR luciferase reporter
Reagent: siRNA pool against human genes, 40 nM
Time to read-out: 72 h
Measured: 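HPV18 LCR reporter light per well, converted to plate-wise z-scores that exclude control wells, and averaged over triplicate plates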
Scale: mean z-score and z-score: higher = stronger reporter signal, weaker E2 silencing
Rule for the call: 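Hit if mean z-score reaches 2 and two or more of three replicate z-scores also reach 2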

| target | pool no. | mean z-score | z-score, replicate A | z-score, replicate B | z-score, replicate C |
| --- | --- | --- | --- | --- | --- |
| PSORS1C1 | 1 | 0.41 | 0.04 | 0.46 | 0.74 |
| PRPF18 | 1 | 0.4 | 0.49 | 0.61 | 0.1 |
| LOC401732 (retired record) | 1 | 0.16 | 0.1 | 0.08 | 0.3 |
| NAALAD2 | 1 | 0.21 | 0.52 | 0.19 | -0.07 |
| ZNF83 | 1 | 0.44 | 0.18 | 0.22 | 0.91 |
| NRN1 | 1 | -0.42 | -0.37 | -0.5 | -0.39 |
| HUS1B | 1 | -1.4 | -1.34 | -1.34 | -1.52 |
| AGTPBP1 | 1 | 0.66 | 0.67 | 0.78 | 0.54 |
| PEPD | 1 | -1.09 | -1.03 | -0.96 | -1.27 |
| SLC25A41 | 1 | 0.35 | 0.58 | 0.25 | 0.22 |
| LOC284397 (retired record) | 1 | 0.79 | 0.81 | 0.67 | 0.88 |
| KPNB1 | 1 | -1.88 | -1.78 | -2.07 | -1.77 |
| DHRS4L2 | 1 | 0.75 | 0.71 | 0.69 | 0.87 |
| MYCNOS | 1 | 0.27 | 0.21 | 0.28 | 0.33 |
| DNAH14 | 1 | -0.65 | -0.56 | -0.58 | -0.8 |
| DNAH14 | 2 | -1.33 | -0.89 | -1.36 | -1.74 |
| LOC401307 (retired record) | 1 | -0.99 | -0.75 | -1.39 | -0.84 |
| REXO4 | 1 | 1.18 | 0.96 | 1.32 | 1.27 |
| LINS1 | 1 | -0.19 | -0.11 | -0.05 | -0.41 |
| FASTKD5 | 1 | -0.24 | -0.45 | -0.57 | 0.3 |
| TRIM52 | 1 | -0.83 | -0.46 | -1.09 | -0.93 |
| TRAPPC5 | 1 | 0.17 | 0.25 | 0.2 | 0.08 |
| SPMIP6 | 1 | 1.45 | 1.29 | 1.43 | 1.62 |
| FBXL18 | 1 | -0.68 | -1 | -0.66 | -0.4 |
| TGFBR1 | 1 | 1.65 | 1.65 | 1.72 | 1.56 |
| SENP1 | 1 | -0.68 | -0.43 | -1.06 | -0.55 |
| POLR2E | 1 | -1.83 | -1.63 | -2.04 | -1.83 |
| LINC00313 | 1 | 0.33 | 0.54 | 0.05 | 0.39 |
| WDR24 | 1 | -0.2 | -0.6 | -0.09 | 0.11 |
| CTSA | 1 | -0.17 | -0.2 | -0.25 | -0.08 |
| TMEM62 | 1 | -0.22 | -0.33 | -0.25 | -0.07 |
| GBP7 | 1 | -0.21 | -0.26 | -0.34 | -0.03 |
| LOC392850 (retired record) | 1 | 0.82 | 0.82 | 0.67 | 0.97 |
| BAHCC1 | 1 | -1.16 | -1.37 | -0.9 | -1.2 |
| MEIS2 | 1 | 1.97 | 1.92 | 2.27 | 1.73 |
| RAB11FIP5 | 1 | -0.35 | -0.18 | -0.33 | -0.54 |
| SMG8 | 1 | 0.29 | 0.34 | 0.01 | 0.52 |
| TMED10 | 1 | -0.78 | -0.45 | -0.98 | -0.91 |
| TMEM192 | 1 | -0.17 | -0.28 | -0.03 | -0.18 |
| LOC402689 (retired record) | 1 | 0.9 | 1.27 | 0.61 | 0.81 |
| CHRD | 1 | -0.65 | -0.93 | -0.52 | -0.5 |
| LOC283530 (retired record) | 1 | -1.4 | -1.65 | -1.61 | -0.93 |
| RASL11A | 1 | -1.6 | -1.54 | -1.53 | -1.73 |
| FBXO46 | 1 | 0.19 | -0.1 | 0.37 | 0.31 |
| TSKS | 1 | 0.52 | 0.35 | 0.57 | 0.64 |
| LOC399867 (retired record) | 1 | 0.24 | -0.05 | -0.16 | 0.93 |
| CREB3L2 | 1 | -1.78 | -1.47 | -1.74 | -2.13 |
| IQSEC3P3 | 1 | 1.51 | 1.44 | 1.29 | 1.8 |
| MYBPC2 | 1 | 0.76 | 0.78 | 0.74 | 0.75 |
| GJA9 | 1 | -0.16 | -0.69 | 0.02 | 0.18 |
| RNF213 | 1 | 0.12 | 0.21 | 0.23 | -0.09 |
| RNF213 | 2 | 0.56 | 0.68 | 0.54 | 0.46 |
| MCM3AP | 1 | -0.2 | -0.45 | 0.02 | -0.17 |
| OR7D2 | 1 | 0.08 | 0.25 | 0.02 | -0.02 |
| MRS2 | 1 | 0.27 | 0.29 | 0.69 | -0.18 |
| OSCP1 | 1 | 0.43 | 0.5 | 0.41 | 0.39 |
| PTP4A3 | 1 | -1.47 | -1.35 | -1.65 | -1.41 |
